Pooled drug test results. Numbers come from NIAID ChemDB, via PubChem.

Shared fields: whole-cell or culture tests; species: Mycobacterium tuberculosis

Neighbouring rows are from separate reports. MIC bound: limit read from a one-dose screen. Inhibition is in % at the dose shown (toxicity tests: loss of growth or viability). MIC50, MIC90 and the like: level of inhibition, or share of isolates inhibited. For "inactive" no cut-off is given. Blank or dashed fields: not listed here.

SMILES	strain or isolate	read by	endpoint	setting	tested at	result
CCCCCN(CCCCC)CCCNc1ccc(C)c2sc3ccccc3c(=O)c12	H37Rv	BACTEC	MIC			1.6 µg/mL
CCN(CC)C(=O)C1CCCN(c2nc3c(cc2[N+](=O)[O-])c(=O)c(C(=O)O)c2sc4ccccc4n23)C1	H37Rv (MTB)		MIC100			1.49 µM
CO[C@H]1/C=C/O[C@@]2(C)Oc3c(C)c(O)c4c(O)c(c(/C=N/N5CCN(C)CC5)c(O)c4c3C2=O)NC(=O)/C(C)=C\C=C\[C@H](C)[C@H](O)[C@@H](C)[C@@H](O)[C@@H](C)[C@H](OC(C)=O)[C@@H]1C	20 strains		MIC50			1 µg/mL
COc1cc2c(cc1OC)CN(c1nc3c(cc1[N+](=O)[O-])c(=O)c(C(=O)O)c1sc4ccccc4n13)CC2	H37Rv (MTB)		MIC100			1.46 µM
O=C(Nc1ccc(F)cc1)c1cccnc1Cl	H37Rv		MIC			>20 µg/mL
O=C(N/N=C/c1ccc(F)cc1)c1ccncc1	16PI		MIC			>5 µg/mL
CCCCn1c(SCC(=O)Nc2c(C)n(C)n(-c3ccccc3)c2=O)nnc1-c1ccco1	H37Rv	resazurin	inhibition		6.25 µg/mL	inactive
c1ccc(C2=NN=C3C(c4ccccc4)=Nc4ccccc4N3C2)cc1			MIC			100 µg/mL
C=C(C)[C@@H]1CC[C@]2(C(=O)O)CC[C@]3(C)C(CCC4[C@@]5(C)[C@@H](C(=O)O)[C@H](O)C(C)(C)[C@@H]5CC[C@]43C)C12			MIC			>200 µg/mL
Cc1cccc(OC/C(N=Cc2ccncc2)=N\NC(=O)c2ccncc2)c1	INH-r		MIC			>100 µg/mL
COC(=S)SSC(=S)NCCN(CCNC(=S)SSC(=S)OC)C(=S)SSC(=S)OC	H37Rv	BACTEC	inhibition		12.5 µg/mL	80%
COc1nc2ccc(Br)cc2cc1[C@@H](c1ccccc1)[C@@](O)(CCN(C)C)c1cccc2ccccc12			MIC50			0.03 µg/mL
NC(=O)c1nccnc1Cl	H37Rv	BACTEC	MIC bound			>12.5 µg/mL
CCCCCCC(C)c1ccc2c(c1)C(=O)c1nc3ccncc3c(=O)n1-2	H37Rv		MBC			2 µg/mL
O=C(Nc1sc(Cc2ccc(OCc3c(Cl)cccc3Cl)cc2)cc1C(=O)O)c1ccc(Cl)cc1	H37Rv	resazurin	MIC90			1.9 µM
O=C(O)c1cn2c(n1)CN(c1nc3c(cc1[N+](=O)[O-])c(=O)c(C(=O)O)c1sc4ccccc4n13)CC2	H37Rv (MTB)		MIC100			3.08 µM
C=C(C)[C@@H]1CC[C@]2(C)CCC3(C)[C@H](CC[C@@H]4[C@@]5(C)CC[C@H](O)C(C)(C)[C@@H]5CC[C@]43C)[C@@H]12			MIC			>200 µg/mL
O=C(Nc1sc(Cc2ccc(OCc3c(Cl)cccc3Cl)cc2)cc1C(=O)O)c1ccccc1	H37Rv	resazurin	MIC90			15.7 µM
CC(C)(C)c1cc(C=O)cc(C(C)(C)C)c1O	H37Rv	BACTEC	inhibition		6.25 µg/mL	0%
O=C(Cc1ccccc1)N[C@@H]1C(=O)N2C(C(=O)O)=C(CN3CCN(c4cc5c(cc4F)c(=O)c(C(=O)O)cn5C4CC4)CC3)CS[C@H]12	H37Rv		MIC			62.3 µM
Cc1c(NC(=O)C(C)Sc2nnc(-c3ccco3)n2-c2ccc(Cl)cc2)c(=O)n(-c2ccccc2)n1C	H37Rv	resazurin	MIC			>6.25 µg/mL
CC(C)(C)OC(=O)N[C@@H](Cc1ccccc1)[C@H](O)C[C@H](Cc1ccccc1)N=Cc1cccs1	ATTC 27294	resazurin	MIC			104.5 µM
Cc1cc(C)c(Nc2cc(C)nc(Cl)n2)c(C)c1	H37Ra		MIC			>50 µg/mL
CC[C@H]1OC(=O)[C@H](C)[C@@H](O[C@H]2C[C@@](C)(OC)[C@@H](O)[C@H](C)O2)[C@H](C)[C@@H](O[C@@H]2O[C@H](C)C[C@H](N(C)C)[C@H]2O)[C@](C)(O)C[C@@H](C)CN(C)[C@H](C)[C@@H](O)[C@]1(C)O	20 strains		MIC90			>128 µg/mL
C=C(C)[C@@H]1CC[C@]2(C(=O)O)CC[C@]3(C)C(CCC4[C@@]5(C)C(C=O)=CC(C)(C)[C@@H]5CC[C@]43C)C12			MIC			100 µg/mL
COc1ccc(C(=O)C(c2ccc(OC)cc2)C2(O)C(=O)Nc3c(C)cc(Cl)cc32)cc1	H37Rv	resazurin	MIC bound			<6.25 µg/mL
COc1ccc(OC/C(N=Cc2ccncc2)=N\NC(=O)c2ccncc2)cc1	H37Rv(ATCC25584)		MIC			>100 µg/mL
COC(=O)C1=CO[C@@H](C)[C@H]2C[n+]3ccc4c([nH]c5ccccc54)c3C[C@H]12	H37Rv	BACTEC	MIC			≥128 µg/mL
O=C(O)c1c(=O)c2cc([N+](=O)[O-])c(N3CCN(Cc4ccc5c(c4)OCO5)CC3)nc2n2c1sc1ccccc12	H37Rv (MTB)		MIC100			5.59 µM
Cc1c(NC(=O)CSc2nnc(-c3ccco3)n2-c2ccc(Cl)cc2)c(=O)n(-c2ccccc2)n1C	H37Rv	resazurin	MIC			>6.25 µg/mL
O=C(N/N=C/c1cc(Cl)ccc1[N+](=O)[O-])c1ccncc1	ATTC 27294	resazurin	MIC			5 µg/mL
N[C@@H](Cc1ccccc1)C[C@@H](O)[C@@H](N)Cc1ccccc1	ATTC 27294	resazurin	MIC			88 µM
CCCC(=O)Nc1sc(Cc2ccc(OCc3c(Cl)cccc3Cl)cc2)cc1C(=O)O	H37Rv	resazurin	MIC90			61.1 µM
Cc1cccc(NC(=O)c2cccnc2Cl)n1	H37Rv		MIC			>20 µg/mL
NNC(=O)CNc1ccc2ccccc2c1	H37Rv		inhibition	21 d, 8% human serum	100 µg/mL	100%
Cc1ccc(OC/C(N)=N\NC(=O)c2ccncc2)cc1	INH-r		MIC			50 µg/mL
Cc1onc(-c2c(F)cccc2F)c1C(=O)N1CCN(c2nc3c(cc2[N+](=O)[O-])c(=O)c(C(=O)O)c2sc4ccccc4n23)CC1	H37Rv (MTB)		MIC100			9.67 µM
CCCCN(CCCC)CCCCNc1ccc(C)c2sc3ccccc3c(=O)c12	H37Rv	BACTEC	inhibition		12.5 µg/mL	100%
C=CCOc1cccc(/C=C/C(=O)c2ccc(O)cc2O)c1	H37Rv	broth dilution	MIC			>200 µg/mL
N/C(COc1ccccc1Cl)=N/NC(=O)c1ccncc1	INH-r		MIC			100 µg/mL
CSC(=S)Nc1nc2ccc(Cl)cc2s1	H37Rv	BACTEC	MIC bound			≤128 µg/mL
O=C(O)c1c(=O)c2cc([N+](=O)[O-])c(N3CCC(O)(c4ccc(Cl)cc4)CC3)nc2n2c1sc1ccccc12	H37Rv (MTB)		MIC100			2.83 µM
Cc1cc(OC(=O)c2c(-c3c(Cl)cccc3Cl)noc2C)n(-c2ccc(NC(=O)c3c(-c4c(Cl)cccc4Cl)noc3C)cc2)n1	H37Rv	resazurin	inhibition		6.25 µg/mL	-11%
CC(C)(C)OC(=O)N[C@@H](Cc1ccccc1)[C@H](O)C[C@H](Cc1ccccc1)N=Cc1ccco1	ATTC 27294	resazurin	MIC			108.1 µM
Cc1ccc[n+]2c1[nH]c(=O)c1cccnc12	H37Rv		MIC			>20 µg/mL
N#CC1(OC2OC(CO)C(O)C(O)C2O)C=CC(O)C1O	H37Rv	BACTEC	MIC bound			>12.5 µg/mL
C=CCSc1nnc(-c2ncc([N+](=O)[O-])n2C)s1	H37Rv		MIC			>6.25 µg/mL
Clc1ccc2c(c1)nc1cc(Nc3ccccc3)c(=NC3CCCCC3)cc-1n2-c1ccccc1	H37Rv		MIC			3.3 µg/mL
O=C(Nc1sc(Cc2ccc(OCc3c(Cl)cccc3Cl)cc2)cc1C(=O)O)c1ccccn1	H37Rv	resazurin	MIC90			24.7 µM
CC[C@@H](CO)NCCN[C@@H](CC)CO	20 strains		MIC90			0.5 µg/mL
CSC(=S)NS(=O)(=O)c1cccs1	H37Rv	BACTEC	inhibition		128 µg/mL	60%
CC(C)(C)OC(=O)N[C@@H](Cc1ccccc1)[C@H](O)C[C@H](Cc1ccccc1)N=Cc1ccc[nH]1	ATTC 27294	resazurin	MIC			108.4 µM
Cc1ccc(-n2c(SCC(=O)Nc3c(C)n(C)n(-c4ccccc4)c3=O)nnc2-c2ccco2)cc1	H37Rv	resazurin	MIC			>6.25 µg/mL
CC(C)(C)OC(=O)NNS(=O)(=O)CCC(N)C(=O)O	H37Rv	BACTEC	MIC bound			>12.5 µg/mL
Cc1ccc(C2=NN=C3C(c4ccccc4)=Nc4ccccc4N3C2)cc1			MIC			100 µg/mL
O=C(O)c1ccc(N2N=C3C(=CC(=O)c4ccccc43)SCC2=O)cc1	H37Rv	BACTEC	MIC bound			≤12.5 µg/mL
CC(C)=CCC/C(C)=C/CC/C(C)=C/CC/C(C)=C/CC/C(C)=C/CC/C(C)=C/CC/C(C)=C/CC/C(C)=C/CC[C@H](C)CCOP(=O)(O)C[C@@H]1N[C@H](CO)[C@@H](O)[C@@H]1O	H37Rv		MIC			35 µM
C[C@]12CCC(=O)C=C1CCC1[C@@H]2C(=O)C[C@@]2(C)[C@H]1CC[C@]2(O)C(=O)Cn1c(=O)[nH]cc(F)c1=O	H37Rv	resazurin	inhibition		6.25 µg/mL	56%
O=C(O)c1c(=O)c2cc([N+](=O)[O-])c(N3CCC(N4CCCCC4)CC3)nc2n2c1sc1ccccc12	H37Rv (MTB)		MIC100			1.54 µM
CCC(C)[C@H]1OC(=O)[C@H](Cc2ccccc2)N(C)C(=O)[C@@H](C(C)C)OC(=O)[C@H](Cc2ccccc2)N(C)C(=O)[C@@H](C(C)C)OC(=O)[C@H](Cc2ccccc2)N(C)C1=O	H37Ra		MIC			25 µg/mL
O=C1OC2C3C=CC(O3)C2O1	H37Rv	BACTEC	MIC bound			>12.5 µg/mL
C#CCSc1nnc(-c2ccc([N+](=O)[O-])o2)s1	H37Rv		inhibition		6.25 µg/mL	97%
Cc1c(NC(=O)C(C)Sc2nnc(-c3ccco3)n2-c2ccccc2)c(=O)n(-c2ccccc2)n1C	H37Rv	resazurin	inhibition		6.25 µg/mL	3%
O=C(Nc1cccnc1)c1ccc([N+](=O)[O-])s1	H37Rv	resazurin	MIC bound			>6.25 µg/mL
COc1ccc(OC/C(N)=N\NC(=O)c2ccncc2)cc1	H37Rv(ATCC25584)		MIC			12.5 µg/mL
COc1cc(OC)c2c(=O)cc(-c3cccnc3)oc2c1	H37Rv	BACTEC	MIC bound			>12.5 µg/mL
O=[N+]([O-])c1ccc(CSc2nnc(-c3ccc([N+](=O)[O-])o3)s2)cc1	H37Rv		MIC			3.13 µg/mL
COc1ccc(/C=N/N=C(N)/C(N)=N/N=C/c2ccc(OC)cc2)cc1	H37Rv	BACTEC	inhibition		12.5 µg/mL	6%
Cc1cccnc1NC(=O)c1cccnc1Cl	H37Rv		MIC			>20 µg/mL
CC[C@@]1(O)CC2CN(CCc3c([nH]c4ccccc34)[C@](C(=O)OC)(c3cc4c(cc3OC)N(C=O)[C@H]3C45CCN4CC=C[C@](CC)(C[C@@]3(O)C(=O)OC)[C@@H]45)C2)C1.O=S(=O)(O)O	H37Rv	BACTEC	MIC			≥12.5 µg/mL
NNC(=O)c1ccncc1	H37Rv		MIC			>20 µg/mL
CC1(C)COCN1c1nc2c(cc1[N+](=O)[O-])c(=O)c(C(=O)O)c1sc3ccccc3n12	H37Rv (MTB)		MIC100			3.54 µM
C=CCSc1nnc(-c2ccc([N+](=O)[O-])o2)s1	H37Rv		inhibition		6.25 µg/mL	84%
Cc1c(NC(=O)C(C)Sc2nnc(-c3ccco3)n2C2CCCCC2)c(=O)n(-c2ccccc2)n1C	H37Rv	resazurin	inhibition		6.25 µg/mL	66%
Cc1c2ccnc(C(N)=O)c2c(C)c2c1[nH]c1ccccc12	H37Rv	resazurin	MIC bound			<6.25 µg/mL
CC(=O)Nc1nc(Cc2nnc(SCC#N)n2NC(=O)c2cccc([N+](=O)[O-])c2)cs1	H37Rv		inhibition		6.25 µg/mL	100%
C=C[C@@]1(C)C=C2CC[C@@H]3[C@@](C)([C@H](O)CC(=O)[C@@]3(C)CC)[C@H]2C[C@H]1O			MIC			4 µg/mL

6 of the rows above, restated:

SMILES,strain or isolate,read by,endpoint,setting,tested at,result
Cc1cccc(OC/C(N=Cc2ccncc2)=N\NC(=O)c2ccncc2)c1,INH-r,,MIC,,,>100 µg/mL
Cc1ccc[n+]2c1[nH]c(=O)c1cccnc12,H37Rv,,MIC,,,>20 µg/mL
CC(C)(C)OC(=O)N[C@@H](Cc1ccccc1)[C@H](O)C[C@H](Cc1ccccc1)N=Cc1ccc[nH]1,ATTC 27294,resazurin,MIC,,,108.4 µM
Cc1c(NC(=O)C(C)Sc2nnc(-c3ccco3)n2-c2ccccc2)c(=O)n(-c2ccccc2)n1C,H37Rv,resazurin,inhibition,,6.25 µg/mL,3%
CC[C@@H](CO)NCCN[C@@H](CC)CO,20 strains,,MIC90,,,0.5 µg/mL
CCN(CC)C(=O)C1CCCN(c2nc3c(cc2[N+](=O)[O-])c(=O)c(C(=O)O)c2sc4ccccc4n23)C1,H37Rv (MTB),,MIC100,,,1.49 µM